Measurements: patent US6426229B1, “Chelating agent and detergent comprising the same” (Mitsubishi Rayon Co., Ltd., priority 1995, dated 2002)

These molecules were tested on activated sludge (assay: Biodegradability test, amended SCAS method (302A Modified SCAS Test, OECD guideline)). Conditions: not given.

Row | Structure (SMILES) | biodegradability in 302A Modified SCAS Test
1 | O=C(O)C[C@@H](C(=O)O)N(CC(=O)O)CC(=O)O [S-ASDA, (S)-aspartic acid-N,N-diacetic acid] | completely decomposed to inorganic materials
2 | O=C(O)CN(CCS(=O)(=O)O)CC(=O)O [TUDA, taurine-N,N-diacetic acid] | completely decomposed to inorganic materials in a short time

Same assay, conditions: amended SCAS method, activated sludge, supernatant liquid

Row | Structure (SMILES) | Retention rate by HPLC (%) | Retention rate by TOC (%)
3 | O=C([O-])C[C@@H](C(=O)[O-])N(CC(=O)[O-])CC(=O)[O-].[Na+].[Na+].[Na+].[Na+] | 0 | 0
4 | O=C([O-])CC[C@@H](C(=O)[O-])N(CC(=O)[O-])CC(=O)[O-].[Na+].[Na+].[Na+].[Na+] | 0 | 0
5 | O=C([O-])CN(CCS(=O)(=O)[O-])CC(=O)[O-].[Na+].[Na+].[Na+] | 0 | 0
6 | O=C([O-])CC(C(=O)[O-])N(CC(=O)[O-])CC(=O)[O-].[Na+].[Na+].[Na+].[Na+] (racemic) [Racemic aspartic acid-N,N-diacetic acid tetrasodium salt] | 65 | 50
7 | O=C([O-])CCC(C(=O)[O-])N(CC(=O)[O-])CC(=O)[O-].[Na+].[Na+].[Na+].[Na+] (racemic) [Racemic glutamic acid-N,N-diacetic acid tetrasodium salt] | 60 | 50

Each molecule was assayed on microorganisms living in environmental water such as rivers, lakes, and general sewage (assay: Decomposition by microorganisms living in environmental water). Conditions: without activated sludge treatment.

Row | Structure (SMILES) | decomposition by microorganisms living in environmental water
8 | CN(CC(=O)O)CC(=O)O [MIDA, N-methyliminodiacetic acid] | readily decomposed by microorganisms living in environmental water
9 | O=C(O)CN[C@@H](CC(=O)O)C(=O)O [S-ASMA, (S)-aspartic acid-N-monoacetic acid] | readily decomposed by microorganisms living in environmental water
10 | O=C(O)CCN[C@@H](CC(=O)O)C(=O)O [S-ASMP, (S)-aspartic acid-N-monopropionic acid] | readily decomposed by microorganisms living in environmental water

Some compounds share one wording; it may come from a single statement.
